Measured values from several laboratories, pooled; numbers as filed in NIAID ChemDB.

Common to all: host cell toxicity; endpoint: CC50

Rows are shuffled and stem from different studies.

| structure | cell line | method | setting | value |
|---|---|---|---|---|
| CO[C@@H]1[C@H](O)[C@@H](COP(=O)(O)OP(=O)(O)OP(=O)(O)O)O[C@H]1n1ccc(N)nc1=O | HepG2-5B | MTT |  | >100 µg/mL |
| Nc1ccn([C@H]2CC[C@@H](CO)O2)c(=O)n1 | NHDF |  |  | >100 µM |
| O=C(NC1N=C(c2cccc(Cl)c2)c2ccccc2NC1=O)c1ccc([N+](=O)[O-])cc1 | HEP-2 |  |  | 7 µM |
| O=c1ccn([C@H]2C=C[C@@H](CO)O2)c(=O)[nH]1 | ATH8 |  |  | 107 µM |
| Nc1ncnc2c1ncn2CCOCP(=O)(O)O | NHDF |  |  | 650 µM |
| COc1c(CC=C(C)C)c(O)cc2oc(=O)c(-c3ccc(O)cc3O)cc12 | Huh7.5 | WST |  | 69 µg/mL |
| CC(C)CN(C[C@@H](O)[C@H](Cc1ccc(F)cc1)NC(=O)O[C@H]1CCO[C@H]2OCC[C@H]21)S(=O)(=O)c1ccc2nc(NC(C)C)sc2c1 | HKBMM | MTT |  | >100 µM |
| CC(C)NS(=O)(=O)c1nc(-c2ccc(Cl)cc2)n[nH]1 | THP-1 | MTT |  | >100 µg/mL |
| C=CCCC[C@@H]1OC(=O)CNC(=O)[C@H]([C@@H](C)CC)NC(=O)[C@@H]2CCCN2C(=O)[C@H]([C@@H](C)CC)OC(=O)[C@H](Cc2ccccc2)N(C)C(=O)[C@H](C(C)C)NC(=O)C1(C)C | HT-29 | MTT |  | 13 µM |
| [N-]=[N+]=N[C@H]1C[C@H](n2cc(/C(I)=C\I)c(=O)[nH]c2=O)O[C@@H]1CO | PBM |  |  | 18.6 µM |
| CCOC(=O)C1CCN(C(=O)C(=O)Nc2ccc3c(c2)OCO3)CC1 | PM1 | WST |  | >200 µM |
| O=C1C(=O)N(CN2CCN(c3ccnc4cc(Cl)ccc34)CC2)c2cccc(Br)c21 | Human foreskin fibroblasts | MTT / absorbance |  | 9.97 µM |
| CC(C)CN(C[C@@H](O)[C@H](Cc1ccccc1)NC(=O)O[C@H]1CCOC1)S(=O)(=O)c1ccc(N)cc1 | HKBMM | MTT |  | >100 µM |
| CC(C)CCCc1ccc2c(c1)C(=O)C=C(N1CCCC1)C2=O | Human fibroblast 2C4 | MTT |  | 1610 µM |
| [N-]=[N+]=N[C@H]1C[C@H](n2cc(/C(Br)=C\I)c(=O)[nH]c2=O)O[C@@H]1CO | PBM |  |  | 26.2 µM |
| CC(=O)O[C@@H](/C=C(\C)C(=O)O)C[C@@H](C)[C@H]1CC[C@@]2(C)C3CC[C@H]4C(C)(C)C(=O)CC[C@]4(C)C3=CC[C@]12C | P-388 |  |  | 16.36 µM |
| C[C@]1(C(=O)O)CC[C@]2(C)CC[C@]3(C)C(=CC(=O)[C@@H]4[C@@]5(C)CC[C@H](O[C@H]6O[C@H](C(=O)O)[C@@H](O)[C@H](O)[C@H]6O[C@@H]6O[C@H](C(=O)O)[C@@H](O)[C@H](O)[C@H]6O)[C@](C)(CO)[C@@H]5CC[C@]43C)[C@@H]2C1 | Huh7.5 | WST |  | >30 µg/mL |
| O=C(O)c1cc(C(=O)O)cc(-c2c3nc(c(-c4cc(C(=O)O)cc(C(=O)O)c4)c4ccc([nH]4)c(-c4cc(C(=O)O)cc(C(=O)O)c4)c4nc(c(-c5cc(C(=O)O)cc(C(=O)O)c5)c5ccc2[nH]5)C=C4)C=C3)c1 | MAGI cell | MTT |  | 36 µM |
| Nc1nc2c(ncn2COCCO)c(=O)[nH]1 | CD4+ T lymphocytes |  |  | >250 µg/mL |
| C/C(=C\CC[C@@H](C)C1CC[C@@]2(C)[C@@H]3CC[C@H]4C(C)(C)C(=O)CC[C@]4(C)[C@@]3(O)CC[C@]12C)C(=O)O | P-388 |  |  | >40 µM |
| Clc1ccc(-c2nc(SCC3CC3)n[nH]2)cc1 | Panc-1 | MTT |  | >100 µg/mL |
| Nc1nc2c(ncn2[C@@H]2C[C@H](CO)[C@H]2CO)c(=O)[nH]1 | CD4+ T lymphocytes |  |  | 6.4 µg/mL |
| CC1(C)[C@@H](O[C@H]2O[C@H](C(=O)O)[C@@H](O)[C@H](O)[C@H]2O[C@@H]2O[C@H](C(=O)O)[C@@H](O)[C@H](O)[C@H]2O)CC[C@]2(C)[C@H]3C(=O)C=C4[C@@H]5C[C@@](C)(C(=O)O)CC[C@]5(C)CC[C@@]4(C)[C@]3(C)CC[C@@H]12 | Huh7.5 | WST |  | 560 µg/mL |
| Fc1ccc(-c2nc(SCC3CC3)n[nH]2)cc1 | Panc-1 | MTT |  | >100 µg/mL |
| O=C([O-])c1cc(COc2ccc(-c3c4nc(c(-c5ccc(OCc6cc(C(=O)[O-])cc(C(=O)[O-])c6)cc5)c5ccc([nH]5)c(-c5ccc(OCc6cc(C(=O)[O-])cc(C(=O)[O-])c6)cc5)c5nc(c(-c6ccc(OCc7cc(C(=O)[O-])cc(C(=O)[O-])c7)cc6)c6ccc3[nH]6)C=C5)C=C4)cc2)cc(C(=O)[O-])c1 | MAGI cell | MTT |  | 35 µM |
| Cc1cn([C@H]2C[C@H](N=[N+]=[N-])[C@@H](CO)O2)c(=O)nc1N | ATH8 |  |  | >100 µM |
| NC(=O)c1[nH]c2ccc(Cl)cc2c1S(=O)(=O)c1ccccc1 | Macrophage |  |  | >20 µM |
| CC(=O)O[C@H]1C(=O)[C@@]2(C)[C@H]([C@H](OC(=O)c3ccccc3)[C@]3(O)C[C@H](OC(=O)[C@H](O)[C@@H](NC(=O)c4ccccc4)c4ccccc4)C(C)=C1C3(C)C)[C@]1(OC(C)=O)CO[C@@H]1C[C@@H]2O | HT-29 | MTT |  | 0.007 µM |
| Cc1c(O)cccc1C(=O)N[C@@H](CSc1ccccc1)[C@H](O)CN1C[C@H]2CCCC[C@H]2C[C@H]1C(=O)NC(C)(C)C | HCT-8 |  |  | >250 µg/mL |
| S=c1nc(-c2ccco2)[nH][nH]1 | THP-1 | MTT |  | >100 µg/mL |
| CC1(OC(=O)CC(F)(F)F)c2ccccc2-c2c1c(-n1ccnc1)nc1ccc(Br)cc21 | U-937 | MTT |  | >10 µg/mL |
| Cc1cc(NS(=O)(=O)c2ccc(N3C(=O)CSC3c3c(F)cccc3F)cc2)no1 | HCT116 | MTT |  | >100 µg/mL |
| O=C1C(=O)c2ccccc2C(O)=C1C1CCC(c2ccc(Cl)cc2)CC1 | Human fibroblast 2C4 | MTT |  | 1360 µM |
| Cc1cn([C@H]2C[C@H](SCCO)[C@@H](CO)O2)c(=O)[nH]c1=O | ATH8 |  |  | >100 µM |
| CC(C)(C)OC(=O)NC(Cc1cccc(F)c1)C(=O)O/N=C1\c2ccccc2-c2c1c(N1CCN(c3ccccn3)CC1)nc1ccc(Br)cc21 | U-937 | MTT |  | >20 µg/mL |
| O=C1C(=O)N(CCCNc2ccnc3cc(C(F)(F)F)ccc23)c2cccc(Cl)c21 | Human foreskin fibroblasts | MTT / absorbance |  | 8.25 µM |
| CC(C)c1nc(CN(C)C(=O)N[C@H](C(=O)N[C@@H](Cc2ccccc2)C[C@H](O)[C@H](Cc2ccccc2)NC(=O)OCc2cncs2)C(C)C)cs1 | HCT-8 |  |  | >250 µg/mL |
| Nc1nc2c(ncn2CCC(CO)CO)c(=O)[nH]1 | SupT1 |  |  | 170 µg/mL |
| Nc1ccn([C@H]2CC[C@@H](CO)O2)c(=O)n1 | ATH8 |  |  | 35 µM |
| Cc1cc(NS(=O)(=O)c2ccc(N3C(=O)CSC3c3c(Cl)cccc3Cl)cc2)no1 | MCF-7 | MTT |  | >100 µg/mL |
| O=C(CCCCBr)O/N=C1\c2ccccc2-c2c1c(N1CCN(c3ccccn3)CC1)nc1ccc(Br)cc21 | U-937 | MTT |  | >20 µg/mL |
| CC[C@H]1C[C@]1(NC(=O)[C@@H]1C[C@@H]2CN1C(=O)[C@H](C(C)(C)C)NC(=O)OCC(C)(C)CCCCc1cccc3c1CN(C3)C(=O)O2)C(=O)NS(=O)(=O)C1CC1 | Huh7.5.1 | MTT |  | 81.4 µg/mL |
| O=C([O-])c1ccc(C2=C3C=CC(=N3)C(c3ccc(C(=O)[O-])cc3)=C3C=CC(=N3)C(=c3ccc(=C([O-])[O-])cc3)c3ccc([n-]3)C(c3ccc(C(=O)[O-])cc3)=C3C=CC2=N3)cc1 | MAGI cell | MTT |  | >100 µM |
| CCO[C@H]1C[C@H](n2cc(C)c(=O)[nH]c2=O)O[C@@H]1CO | ATH8 |  |  | >100 µM |
| O=C(NC1N=C(c2ccccc2)c2ccccc2NC1=O)c1cccc2c1C(=O)c1ccccc1-2 | HEP-2 |  |  | 4.3 µM |
| CC1(C)CC[C@]2(C(=O)O)CC[C@]3(C)C(=CC[C@@H]4[C@@]5(C)CC[C@H](O)C(C)(C)[C@@H]5CC[C@]43C)[C@@H]2C1 | 9-13 cells | MTT |  | 78.6 µg/mL |
| CC(=O)c1cc(O)c(O)c(=O)cc1C | PHH | MTS | 3 d | >100 µM |
| FC(F)(F)c1ccccc1-c1nc(=S)[nH][nH]1 | Panc-1 | MTT |  | >100 µg/mL |
| Nc1ccn([C@H]2C[C@H]3OC[C@H]3O2)c(=O)n1 | ATH8 |  |  | >500 µM |
| O=C(Nc1ccc(C(F)(F)F)cc1)NC1N=C(c2ccccc2)c2ccccc2NC1=O | HEP-2 |  |  | 4 µM |
| CC(=O)OC(C1C=C(C)C(=O)O1)C(C)C1C2C3(O)OC4(CCC12C)C(=CCC1C(C)(C)OC2CC(=O)OC21C4O)C3=O | MDA-MB-231 | MTT |  | 3.06 µg/mL |
| Cc1cn([C@H]2C[C@H](N=[N+]=[N-])[C@@H](CO)O2)c(=O)[nH]c1=O | ATH8 |  |  | 45 µM |
| CCCCCCCCC(=O)O/N=C1\c2ccccc2-c2c1c(-n1ccnc1)nc1ccc(Br)cc21 | U-937 | MTT |  | >100 µg/mL |
| C/C(=C\C=C\[C@@H](C)C1CC[C@@]2(C)[C@@H]3CC[C@H]4C(C)(C)C(=O)CC[C@]4(C)[C@@]3(O)CC[C@]12C)C(=O)O | P-388 |  |  | 29.17 µM |
| O=c1ccn([C@H]2CC[C@@H](CO)O2)c(=O)[nH]1 | ATH8 |  |  | >500 µM |
| S=c1[nH]nc(-c2ccc(Cl)cc2)s1 | THP-1 | MTT |  | >100 µg/mL |
| Nc1nc2c(ncn2/C=C2/CC2(CO)CO)c(=O)[nH]1 | HeLaP4 |  |  | 0.047 µM |
| O=C1C[C@@H](c2ccc(O)cc2)Oc2cc(O)ccc21 | Huh7.5 | WST |  | 125 µg/mL |
| O=C1Nc2ccccc2C(c2ccccc2)=NC1NC(=O)n1c(=O)[nH]c2ccccc21 | HEP-2 |  |  | 4.3 µM |
| O=[N+]([O-])c1ccc(-c2n[nH]c(=S)s2)cc1 | Panc-1 | MTT |  | >100 µg/mL |
| Cc1cn([C@H]2C[C@H](N=[N+]=[N-])[C@@H](CO)O2)c(=O)[nH]c1=O | PBM |  |  | >100 µM |
| CCCCSc1n[nH]c(-c2ccc(O)cc2)n1 | Panc-1 | MTT |  | >100 µg/mL |
| Clc1ccc2ccccc2n1 | Human foreskin fibroblasts | MTT / absorbance |  | 8.5 µM |
| CCCCC[C@@H]1OC(=O)CNC(=O)[C@H]([C@@H](C)CC)NC(=O)[C@@H]2CCCN2C(=O)[C@H]([C@@H](C)CC)OC(=O)[C@H](Cc2ccccc2)N(C)C(=O)[C@H](C(C)C)NC(=O)C1(C)C | HT-29 | MTT |  | 67 µM |
| Fc1ccc(-c2nc(SCCCCBr)n[nH]2)cc1 | Panc-1 | MTT |  | >100 µg/mL |

Repeating the final 5 entries:

structure | cell line | method | setting | value
Cc1cn([C@H]2C[C@H](N=[N+]=[N-])[C@@H](CO)O2)c(=O)[nH]c1=O | PBM |  |  | >100 µM
CCCCSc1n[nH]c(-c2ccc(O)cc2)n1 | Panc-1 | MTT |  | >100 µg/mL
Clc1ccc2ccccc2n1 | Human foreskin fibroblasts | MTT / absorbance |  | 8.5 µM
CCCCC[C@@H]1OC(=O)CNC(=O)[C@H]([C@@H](C)CC)NC(=O)[C@@H]2CCCN2C(=O)[C@H]([C@@H](C)CC)OC(=O)[C@H](Cc2ccccc2)N(C)C(=O)[C@H](C(C)C)NC(=O)C1(C)C | HT-29 | MTT |  | 67 µM
Fc1ccc(-c2nc(SCCCCBr)n[nH]2)cc1 | Panc-1 | MTT |  | >100 µg/mL

Blank or dashed fields: not listed here. CCn is the concentration with n% toxicity to the cells.